A mixed list of measured activities; the numbers were collected in NIAID ChemDB.

All rows: whole-cell or culture tests; species: Cryptosporidium parvum; measure: EC50

ECn: concentration that inhibits the pathogen or its effect by n%. a–b is a range or a potency band. Conditions beyond the fields shown may differ between rows. An empty or dashed field is not shown.

O=C(c1ccccc1)c1oc2cc(O)cc(Cc3ccccc3)c2c1O ; result: >50 µM
CO[C@H]1/C=C/O[C@@]2(C)Oc3c(C)c(O)c4c(O)c(c5c(c4c3C2=O)NC2(CCN(CC(C)C)CC2)N=5)=NC(=O)/C(C)=C\C=C\[C@H](C)[C@H](O)[C@@H](C)[C@@H](O)[C@@H](C)[C@H](OC(C)=O)[C@@H]1C ; cell line: A549 ; result: >8 µg/mL
CCN(CC)CCSc1c2ccccc2nc2ccccc12 ; result: >50 µg/mL
O=C(c1ccccc1)c1oc2cc(O)cc(O)c2c1O ; result: >50 µM
CCSc1c2ccccc2nc2cc(N)ccc12 ; result: >1 µg/mL
COc1cccc2c1C(=O)c1cnn(C)c1C2=O ; result: >100 µM
CC[C@@H](C(=O)[C@@H](C)[C@@H](O)[C@H](C)CCc1ccc(C)c(O)c1C(=O)O)[C@H]1O[C@](CC)([C@H]2CC[C@](O)(CC)[C@H](C)O2)C[C@@H]1C ; cell line: A549 ; result: 0.5–2 µg/mL
CCN(CC)CCSc1c2ccccc2nc2cc(Cl)ccc12 ; result: 10–50 µg/mL
O=C1c2ccccc2C(=O)c2[nH]ncc21 ; result: >100 µM
COc1cc(O)c2c(O)c(C(=O)c3ccccc3)oc2c1 ; result: >50 µM
NC[C@@H]1O[C@H](O[C@H]2[C@@H](O)[C@H](O[C@@H]3[C@@H](O)[C@H](N)C[C@H](N)[C@H]3O[C@H]3O[C@H](CO)[C@@H](O)[C@H](O)[C@H]3N)O[C@@H]2CO)[C@H](N)[C@@H](O)[C@@H]1O ; result: >100 µM
COc1ccc(/C=C\C=C\c2cc(OC)cc(=O)o2)cc1 ; result: >50 µM
Cn1ncc2c1C(=O)c1c(Cl)ccc(O)c1C2=O ; result: <10 µM
O=C1/C(=C/c2ccc(O)c(O)c2)Oc2cc(O)ccc21 ; result: 10–25 µM
O=C1c2cccc(Cl)c2C(=O)c2cn[nH]c21 ; result: 10–25 µM
CSc1c2ccccc2nc2ccccc12 ; result: >10 µg/mL

For reference, 2 entries again:

SMILES | cell line | result
CCSc1c2ccccc2nc2cc(N)ccc12 | - | >1 µg/mL
CCN(CC)CCSc1c2ccccc2nc2ccccc12 | - | >50 µg/mL